PubChem BioAssay AID624099 | ICCB-Longwood, 2012

- Test: 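Knock-downs relieving repression by E2 of an HPV18 LCR luciferase reporter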 (primary screen)
- System: human C33A cervical carcinoma cells (HPV-negative) stably expressing BPV1 E2 and an HPV18 LCR luciferase reporter
- Knock-down reagent: siRNA pool against human genes, 40 nM
- Duration: 72 h
- Measurement: 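HPV18 LCR reporter light per well, converted to plate-wise z-scores that exclude control wells, and averaged over triplicate plates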
- Direction: mean z-score and z-score: higher = stronger reporter signal, weaker E2 silencing
- Active means: 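Mean z ≥ 2 together with z ≥ 2 in two or more of the three replicates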
The whole screen tested about 21,000 reagents; below is an unselected part. 497 of them (2.4%) were called active. 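Higher z means weaker E2 silencing; only reporter increases were scored, and knock-downs that hurt cell survival may mask genuine repressor factors.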 A number with no mark means an inactive call.

Gene	mean z-score	z-score, replicate A	z-score, replicate B	z-score, replicate C
PTGR3	-0.19	-0.16	-0.07	-0.34
TBP	2.01 (active)	1.64	2.01	2.37
DYNAP	-1.03	-1.08	-1.11	-0.91
ACSM3	1.43	1.64	1.54	1.11
PFN1P3	2.25 (active)	1.81	2.36	2.57
C9orf78	-0.05	0.02	0.19	-0.37
TBC1D14	0.3	0.29	0.31	0.3
UAP1	1.23	1.51	0.98	1.19
LOC401025 (retired record)	1.04	0.94	0.87	1.32
LOC256176 (retired record)	0.12	0.03	0	0.34
HAPLN3	-0.79	-1.2	-0.67	-0.51
IFITM3P2	-0.34	-0.55	0.01	-0.49
GRAMD2A	-0.7	-0.87	-0.9	-0.32
GLYR1	0.56	0.47	0.56	0.65
LINC00934	0.83	0.76	0.98	0.75
ZNF324	-1.23	-1.02	-1.47	-1.21
CYREN	1.15	0.97	0.94	1.55
ZKSCAN1	0.58	0.89	0.36	0.48
WASF1	0.17	-0.26	0.74	0.03
USP32	-0.21	-0.82	0.05	0.14
MEMO1	1.31	1.21	1.52	1.21
MEN1	0.46	0.71	0.56	0.11
PLA2G10	-0.86	-1.07	-0.85	-0.65

Part of the list above, reformatted:
CYREN
- mean z-score: 1.15
- z-score, replicate A: 0.97
- z-score, replicate B: 0.94
- z-score, replicate C: 1.55

ZKSCAN1
- mean z-score: 0.58
- z-score, replicate A: 0.89
- z-score, replicate B: 0.36
- z-score, replicate C: 0.48

WASF1
- mean z-score: 0.17
- z-score, replicate A: -0.26
- z-score, replicate B: 0.74
- z-score, replicate C: 0.03

USP32
- mean z-score: -0.21
- z-score, replicate A: -0.82
- z-score, replicate B: 0.05
- z-score, replicate C: 0.14

MEMO1
- mean z-score: 1.31
- z-score, replicate A: 1.21
- z-score, replicate B: 1.52
- z-score, replicate C: 1.21

The results go on:
Gene	mean z-score	z-score, replicate A	z-score, replicate B	z-score, replicate C
CDR1	-0.22	-0.09	-0.23	-0.33
LILRA6	1.55	1.73	1.23	1.67
UBAP1	-0.6	-0.43	-0.55	-0.82
DPT	0.87	0.79	0.8	1.01
ANKRD26P1	-0.82	-0.53	-0.99	-0.94
C1orf115	-0.6	-0.28	-0.79	-0.72
TRIM64	-0.33	-0.45	-0.36	-0.17
PDZD2	-0.37	-0.17	-0.44	-0.5
ZNF763	0.25	0.16	0.52	0.09
ELFN2	-1.83	-1.65	-1.95	-1.89
C5orf24	-1.5	-1.58	-1.36	-1.56
TAF4	-0.68	-0.72	-0.6	-0.72
NUDCD3	1.35	1.23	1.36	1.44
LOC730133 (retired record)	0.89	1.02	0.62	1.04
STOX1	0.49	0.35	0.74	0.38
AGPAT1	0.26	0.08	0.49	0.22
CWH43	0.31	0.59	0.26	0.09
DUX1	-0.48	-0.48		-0.49
RPS18P12	0.26	0.33	0.03	0.41
SMARCA5	-0.22	-0.13	-0.19	-0.35
FNDC8	0.2	0.15	0.27	0.17
ZNF197	-1.08	-1.17	-0.9	-1.17
NR1H4	-0.2	-0.28	-0.08	-0.24
PAF1	-0.7	-0.48	-0.89	-0.73
LOC402281 (retired record)	-0.92	-0.7	-0.79	-1.26
IFT54	-1.42	-1.6	-1.48	-1.18
TLR10	0.21	0.21	0.3	0.13
EXOSC1	-0.44	0.01	-0.72	-0.6
SCGB3A1	0.62	0.72	0.54	0.59
FCER1G	0.31	0.11	0.55	0.26
TNFSF8	0.68	0.92	0.75	0.37
RABL2B	1.33	1.11	1.26	1.63
PGGT1B	-1.67	-1.8	-1.96	-1.26
PHAF1	-0.53	-0.85	-0.18	-0.55
